Assay results: article PMC8025907

Tests used:
[1] = molecular target: T1, His6-BfmR (Pseudomonas aeruginosa MPAO1) (UniProt Q9HWS7); assay: DNase I footprinting; conditions: 50 mM acetyl phosphate, 5 mM Mg2+, 10 mM Tris-Cl pH 8.0, 1 mM DTT, 10% glycerol, 5 mM MgCl2, 10 mM KCl, footprinting 30 min at room temperature, recombinant protein, probe letters rebuilt from the primers and the genome
T1 sequence: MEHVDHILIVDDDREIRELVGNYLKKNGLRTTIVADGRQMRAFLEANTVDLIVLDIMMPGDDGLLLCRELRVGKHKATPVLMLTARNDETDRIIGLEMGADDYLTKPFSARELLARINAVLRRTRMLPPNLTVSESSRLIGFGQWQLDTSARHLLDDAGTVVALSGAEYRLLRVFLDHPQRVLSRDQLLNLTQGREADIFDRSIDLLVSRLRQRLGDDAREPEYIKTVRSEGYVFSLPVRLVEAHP

[2] = molecular target: T1, His6-BfmR (Pseudomonas aeruginosa MPAO1); assay: EMSA; conditions: 50 mM acetyl phosphate, 5 mM Mg2+, 10 mM Tris-Cl pH 8.0, 1 mM DTT, 10% glycerol, 5 mM MgCl2, 10 mM KCl, EMSA 30 min at 37 C, footprinting 30 min at room temperature, recombinant protein
[3] = molecular target: CzcR-His6 (Pseudomonas aeruginosa MPAO1) (UniProt G3XD16); assay: EMSA; conditions: 50 mM acetyl phosphate, 5 mM Mg2+, 10 mM Tris-Cl pH 8.0, 1 mM DTT, 10% glycerol, 5 mM MgCl2, 10 mM KCl, EMSA 30 min at 37 C, footprinting 30 min at room temperature, recombinant protein, residues 1-224, protein details: C-terminal His6 (pET22b), label: FAM on forward primer (footprinting), none (EMSA), probe letters rebuilt from the primers and the genome
[4] = molecular target: CzcR-His6 (Pseudomonas aeruginosa MPAO1) (UniProt G3XD16); assay: DNase I footprinting; conditions: 18 uM protein (or as indicated), 50 mM acetyl phosphate, 5 mM Mg2+, 10 mM Tris-Cl pH 8.0, 1 mM DTT, 10% glycerol, 5 mM MgCl2, 10 mM KCl, footprinting 30 min at room temperature, recombinant protein, residues 1-224, protein details: C-terminal His6 (pET22b), label: FAM on forward primer (footprinting), none (EMSA), probe letters rebuilt from the primers and the genome

Sequence: AGCGCCAGGTGGATTCTGTTCATCGCGTCTCTCTCCTGTGTCTTCAGGTGGAGCGTTCGCCGCCCGCAGGGACGGCACCGGAACCTGTTGAGCATAGCTCCGCCGCGGGCAGTCGGCGGAAACTACGCCGTTGTGTCACATACCTGACACAATTTCGTTATCTAATGCGGCGCAAGACAGATCGACCCGAGGCAAGACCATGGTTGGCAAGACAATCCTCATCGTTGATGACGAAGCACCGATTCGCGAGATGATCGCCGTGGCCCTGGAGATGGCCGGCTACGAGTGCCTGGAGGCGGAAAATACCCAGCAGGCGCACGCGGTGATCGTCGACCGCAA (double strand) [phoB promoter]
- binding result ([1]; 6 uM protein, protein details: N-terminal His6, label: FAM on reverse primer): binds

Sequence: CGAAGATTTCCCCTTAATGGTGTGTGCATTGGCAACACGCGAGTGCCTGGCTACAGCGCGCCCCTTGTTCCGCGCTGGCCGTAAGGCGGCCCCTTTGTGTTGGGGGAATCTTGGCGATGGCAGATTGCAGCCAAATTGCATGGAGATAAATGTTTCATTACAGAGGAACTTTTTATCTCCAATGCGAATAACGCGAAAAGCCCTCTACTACGGGCCTTTCGGGTTATTCGATATGGGTAGAAATCTCAGCGCAATTTTTGCGCAATCCAGAAGTCAGCAGAAAGCCACTTGCCGGCGCCGCCGAAGAACAGCGCGAGCAACATCACCAGGTAGGTCGCGGCGAACTCGATGCCGTTGTTGACGATGGCGAAGCTTCCGCTCGACGTCAGCCAGTCGTAGTTGCCGTATTCGCGCAGGATTT (double strand) [oprO promoter]
- binding result ([2]; protein details: N-terminal His6, label: FAM on reverse primer (footprinting), none (EMSA), probe letters rebuilt from the primers and the genome): binds
- binding result ([1]; protein details: N-terminal His6, label: FAM on reverse primer (footprinting), none (EMSA)): binds

Sequence: CGGCCAAGAGATTTGGCTCCTTGCATATTATAAGAACCCCAACACTTCCCGTCGTACCTTGAATGCCCCGCCTAGCGGAGAGGCATGAATACGCTCCGTTTTATTGATTTTCAAAGCCATGAGCACGGAGTCGATTTTATAATAATCAGGATTATCCGACGTGCGCTGATTCGCAGAGCGAGTCGGCTTCCGCCAATTAATCCAGCCTTCTTTAGAAGCGGAACAAAAGTACCAGTTTTATTATTCGAGGCCTTCCCTGAAAACGAACGAGACTTGCACTTCTTTAATCTCCATACGCACTTTCCGAAACAGCAGGCAATGTATCAATCGTTGCCAGATCTTTCTTCCGGGCGAGCGGCCGTACAATTCGGAAAACAGTCGCGCCGAACCAG (double strand) [exsA-p]
- binding result ([2]; protein details: N-terminal His6, probe letters rebuilt from the primers and the genome): binds

Sequence: GAGCCTTTTCCTGCGTACCGAAAGAATAAAATTACAACTTGGCTACAACCTCCGGCATTGCAGGAAGCATCAGCTTAGCAATCCCGCATACCCTGTCTGGCACCTACCAGATCTTGTAGTTGAGCCGGTACGAGCGTTCTGTGTTTTATGCAATCCACATCAGCGACCAGGGATGCTGGCTATTTGAAACACTTCACGGAATGACGCTGAAAGTCTTCGCGACCTCGTCTGTCGCACCTTAACGAAAGCATTGCGAATCCATTACCGACAGGTTTCCAAAAGAAACCCGGGATGAAACTCCTATTGCCTTTCGAAAATTGGAAACGACAGGCGAACATATGTAACGCGAAATTTCACCCTACGTATAAACAATGCGCCCAGCGAATATCGCTCCCTTACCGAGCGACGAA (double strand) [phzA1-p]
- binding result [3]: binds
- binding result [4]: binds

Sequence: GGCAGATGTTAGGTAGCGGGGCTTATCGGCAAGGTGACGGAAGAATTACAAGTCGGTAATGAATATTCTCCACGGACAATTAGCGGTTACACTTCGGCAACCTTCGAAGAGACTGGCAATAGTTGGATGAAACATAGGGACAAAAGCAACATGCGCTTACAAAAGGCATTGCCCCTCACGCCCAGCGGTGCTTGCGCCGCGGACATTTCCAAAGTTCTCAGGCGGTCTCCCGGGAGAACTACCCGGTCATTCGATAATTATCATCGAAGCAGCGCAACGATATGAAATTACATTTCCAGGATTCTATCCAGGCAACGCCCGAAATGTAACTTTATAGCAATGCACTTAAACATTTACTTGCAAATGAATCCATACTTTATATAGGGGCGAACATGCGCATC (double strand) [czcR-p2]
- binding result [3]: binds
- binding result [4]: binds

Sequence: GTTACATTTCGGGCGTTGCCTGGATAGAATCCTGGAAATGTAATTTCATATCGTTGCGCTGCTTCGATGATAATTATCGAATGACCGGGTAGTTCTCCCGGGAGACCGCCTGAGAACTTTGGAAATGTCCGCGGCGCAAGCACCGCTGGGCGTGAGGGGCAATGCCTTTTGTAAGCGCATGTTGCTTTTGTCCCTATGTTTCATCCAACTATTGCCAGTCTCTTCGAAGGTTGCCGAAGTGTAACCGCTAATTGTCCGTGGAGAATATTCATTACCGACTTGTAATTCTTCCGTCACCTTGCCGATAAGCCCCGCTACCTAACATCTGCCGCATCCCGGAAGTGCAACTTCGAATATCGCCGGCGAGATATC (double strand) [czcR-p1]
- binding result ([2]; protein details: N-terminal His6, label: FAM on forward primer (footprinting), none (EMSA), probe letters rebuilt from the primers and the genome): binds
- binding result ([1]; 6 uM protein, protein details: N-terminal His6, label: FAM on forward primer (footprinting), none (EMSA)): binds

For some of these results: The exact form of at least one protein or probe is not confirmed.
